Results deposited as PubChem BioAssay AID624099 (ICCB-Longwood, 2012).
Screen: 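Knock-downs relieving repression by E2 of an HPV18 LCR luciferase reporter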 (primary screen). Cell system: human C33A cervical carcinoma cells (HPV-negative) stably expressing BPV1 E2 and an HPV18 LCR luciferase reporter. Reagents: siRNA pool against human genes, 40 nM. Timing: 72 h. Measurement: 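HPV18 LCR reporter light per well, converted to plate-wise z-scores that exclude control wells, and averaged over triplicate plates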. Direction: mean z-score and z-score: higher = stronger reporter signal, weaker E2 silencing. Active means: 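Mean z ≥ 2 together with z ≥ 2 in two or more of the three replicates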.
This is one part, drawn at random, of about 21,000 reagents. 497 of them (2.4%) count as active. 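Higher z means weaker E2 silencing; only reporter increases were scored, and knock-downs that hurt cell survival may mask genuine repressor factors.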 A number with no mark means an inactive call.

OR4A5 [SID134329893] — mean z-score: -0.2; z-score, replicate A: -0.09; z-score, replicate B: -0.6; z-score, replicate C: 0.1
FCAR [SID134315981] — mean z-score: 0.51; z-score, replicate A: 0.41; z-score, replicate B: 0.63; z-score, replicate C: 0.49
GARIN3 [SID134319352] — mean z-score: 1.37; z-score, replicate A: 1.49; z-score, replicate B: 0.43; z-score, replicate C: 2.2
MOAP1 [SID134310464] — mean z-score: 0.66; z-score, replicate A: 0.69; z-score, replicate B: 0.61; z-score, replicate C: 0.68
CRB1 [SID134316677] — mean z-score: 0.28; z-score, replicate A: 0.41; z-score, replicate B: 0.21; z-score, replicate C: 0.22
ATP6V1A [SID134321519] — mean z-score: -0.21; z-score, replicate A: 0.04; z-score, replicate B: -0.3; z-score, replicate C: -0.39
EXOC3 [SID134322835] — mean z-score: -1.63; z-score, replicate A: -1.99; z-score, replicate B: -1.46; z-score, replicate C: -1.43
PTPN2 [SID134313810] — mean z-score: 0.17; z-score, replicate A: 0; z-score, replicate B: 0.22; z-score, replicate C: 0.28

Next part (2 carried over from the part before).
EXOC3 [SID134322835] — mean z-score: -1.63; z-score, replicate A: -1.99; z-score, replicate B: -1.46; z-score, replicate C: -1.43
PTPN2 [SID134313810] — mean z-score: 0.17; z-score, replicate A: 0; z-score, replicate B: 0.22; z-score, replicate C: 0.28
CARMIL1 [SID134324670] — mean z-score: 0.33; z-score, replicate A: -0.05; z-score, replicate B: 0.89; z-score, replicate C: 0.14
ACAN [SID134315560] — mean z-score: 0.35; z-score, replicate A: -0.27; z-score, replicate B: 0.69; z-score, replicate C: 0.64
COX7B [SID134315954] — mean z-score: 0.46; z-score, replicate A: 0.78; z-score, replicate B: 0.26; z-score, replicate C: 0.34
SLITRK5 [SID134325106] — mean z-score: -0.12; z-score, replicate A: -0.06; z-score, replicate B: -0.2; z-score, replicate C: -0.08
